Results published in patent US20060275321A1 (Phoenix Pharmaceuticals, Inc., priority 2005, published 2006).

Test: general procedure: peptide synthesis; BOC-Glu(OcHex)-resin
Details: whole synthesis

HIV-1 30-86 Cys-Acm 30-34
isolated mass: about 16 milligrams
